In US11420959B2, “DACOS type NNRTIS amino acid ester derivative, preparation method thereof, pharmaceutical composition, and application thereof” (YUNNAN UNIVERSITY, priority 2018, dated 2022):
Which two values form the index is not stated here.

tested on: HIV-1IIIB; test: Syncytium inhibition experiment, C8166 cells infected with HIV-1IIIB; assay type: cell-based; conditions: selectivity index, HIV-1IIIB in C8166 cells
Protocol: The specific method was described below.
Syncytium inhibition experiment: 100 μL of C8166 cell suspension (4×10^5/mL) was inoculated into each well of a 96-well cell culture plate containing 5-fold serial dilutions of the compounds, followed by addition of HIV-1IIIB diluted supernatant (MOI=0.04). Three replicate wells were set for each serial concentration. […] The cells were incubated at 37° C. in a 5% CO2 incubator for three days. The number of the syncytia was counted in five non-overlapping fields of view by using an inverted microscope (100×). […] Calculation formula: cytopathic inhibition rate (%)=(1−number of syncytia in experimental wells/number of syncytia in control well)×100%.

SMILES | SI
CCc1c(CC2CCCCC2)nc(SCC(=O)c2ccc(OC(=O)C(N)CCCCN)cc2)[nH]c1=O (stereo not shown) [Compound I-9] | 19235
CCc1c(CC2CCCCC2)nc(SCC(=O)c2ccc(OC(=O)C(N)Cc3c[nH]c4ccccc34)cc2)[nH]c1=O (stereo not shown) [Compound I-5] | 23911
CCc1c(CC2CCCCC2)nc(SCC(=O)c2ccc(OC(=O)C(N)CCSC)cc2)[nH]c1=O (stereo not shown) [Compound I-8] | 30582
CC(C)c1c(CC2CCCCC2)nc(SCC(=O)c2ccc(OC(=O)C3CCCN3)cc2)[nH]c1=O (stereo not shown) [Compound I-15] | 7963.9
CCc1c(CC2CCCCC2)nc(SCC(=O)c2ccc(OC(=O)C(N)Cc3ccccc3)cc2)[nH]c1=O (stereo not shown) [Compound I-7] | 11002
CCc1c(CC2CCCCC2)nc(SCC(=O)c2ccc(OC(=O)[C@@H](C)N)cc2)[nH]c1=O [Compound I-6] | 25390
CCc1c(CC2CCCCC2)nc(SCC(=O)c2ccc(OC(=O)[C@H](N)[C@H](C)CC)cc2)[nH]c1=O [Compound I-3] | 31375
CSCCC(N)C(=O)Oc1ccc(C(=O)CSc2nc(CC3CCCCC3)c(C)c(=O)[nH]2)cc1 (stereo not shown) [Compound I-24] | 19616
CCc1c(CC2CCCCC2)nc(SCC(=O)c2ccc(OC(=O)C(N)CC(N)=O)cc2)[nH]c1=O (stereo not shown) [Compound I-12] | 30183
CCc1c(CC2CCCCC2)nc(SCC(=O)c2ccc(OC(=O)C(N)Cc3cnc[nH]3)cc2)[nH]c1=O (stereo not shown) [Compound I-10] | 15445
CC(C)c1c(CC2CCCCC2)nc(SCC(=O)c2ccc(OC(=O)C(N)Cc3ccccc3)cc2)[nH]c1=O (stereo not shown) [Compound I-21] | 31050
CCc1c(CC2CCCCC2)nc(SCC(=O)c2ccc(OC(=O)CN)cc2)[nH]c1=O [Compound I-1] | 33686
CC(C)c1c(CC2CCCCC2)nc(SCC(=O)c2ccc(OC(=O)C(N)Cc3c[nH]c4ccccc34)cc2)[nH]c1=O (stereo not shown) [Compound I-16] | 31257
CC(C)c1c(CC2CCCCC2)nc(SCC(=O)c2ccc(OC(=O)C(N)C(C)C)cc2)[nH]c1=O (stereo not shown) [Compound I-19] | 37677
CCc1c(CC2CCCCC2)nc(SCC(=O)c2ccc(OC(=O)C(N)CCC(N)=O)cc2)[nH]c1=O (stereo not shown) [Compound I-11] | 23787
Cc1ccnc2c1NC(=O)c1cccnc1N2C1CC1 [NVP, Nevirapine, reference compound] | 38777
Cc1c(CC2CCCCC2)nc(SCC(=O)c2ccc(OC(=O)C(N)Cc3ccccc3)cc2)[nH]c1=O (stereo not shown) [Compound I-22] | 9217.3
CCc1c(CC2CCCCC2)nc(SCC(=O)c2ccc(OC(=O)C3CCCN3)cc2)[nH]c1=O (stereo not shown) [Compound I-4] | 9233
Cc1c(CC2CCCCC2)nc(SCC(=O)c2ccc(OC(=O)CN)cc2)[nH]c1=O [Compound I-23] | >12656
